Pooled drug test results. Numbers come from NIAID ChemDB, via PubChem.

All rows: whole-cell or culture tests; organism: HIV-1; measure: EC50

ECn: concentration that inhibits the pathogen or its effect by n%.

| compound | read by | cell line | strain or isolate | result |
|---|---|---|---|---|
| Cc1c(Sc2ccccc2)n(COCCCl)c(=O)[nH]c1=O |  | MT-4 |  | 1.7 µM |
| CC(C)C[C@@H](C(=O)O)N(C)C(=O)c1ccccc1SSc1ccccc1C(=O)N(C)[C@@H](CC(C)C)C(=O)O | cytopathic effect / XTT | CEM | IIIB | >100 µM |
| O=C(N[C@@H](Cc1ccccc1)[C@H](O)CN(CC1CCCC1)S(=O)(=O)c1cccnc1)O[C@H]1CCOC1 | p24 | CEM | IIIB | <0.101 µM |
| CC(C)C1=C2[C@H]3CC[C@@H]4[C@@]5(C)CC[C@H](OC(=O)[C@H]6C[C@@H](C(=O)O)C6(C)C)C(C)(C)[C@@H]5CC[C@@]4(C)[C@]3(C)CC[C@@]2(CC(=O)NC2(c3ccc(Cl)cc3)CCCC2)CC1=O | p24 / ELISA | MT-2 | 92HT599 | <1 µM |
| COC(=O)c1ccc(NC(=O)CSc2nnnn2-c2c(C)cc(C)cc2C)c(Cl)c1 | p24 | MT-4 |  | <10 µM |
| Cc1c(Sc2cc(Cl)cc(Cl)c2)n(COCCO)c(=O)[nH]c1=O |  | MT-4 |  | 1.8 µM |
| O=C(CSc1nnnn1-c1cccc2cnccc12)Nc1ccccc1Cl | p24 | MT-4 |  | <10 µM |
| NC(=O)CNC(=O)c1ccccc1SSc1ccccc1C(=O)NCC(N)=O | cytopathic effect / XTT | CEM | IIIB | 1.4 µM |
| C=CCOC(=O)N[C@@H](Cc1ccccc1)[C@H](O)CN(CC(C)C)S(=O)(=O)c1ccc(NC(C)=O)cc1 | p24 | CEM | IIIB | <1.001 µM |
| Cc1c(Sc2ccccc2)n(COCCOC(=O)C2CCCCC2)c(=O)[nH]c1=O |  | MT-4 |  | 7.5 µM |
| CC(C)C1=C2[C@H]3CC[C@@H]4[C@@]5(C)CC[C@H](OC(=O)[C@H]6C[C@@H](C(=O)O)C6(C)C)C(C)(C)[C@@H]5CC[C@@]4(C)[C@]3(C)CC[C@@]2(CCNCC(C)(C)NC(=O)c2ccc(CN3CCOCC3)cc2)CC1=O | p24 / ELISA | MT-2 | 92HT599 | <1 µM |
| COc1ccc(S(=O)(=O)N(CC2CCCC2)C[C@@H](O)[C@H](Cc2ccccc2)NC(=O)OCc2cccnc2)cc1 | p24 | CEM | IIIB | <0.1 µM |
| Cc1c(Sc2ccccc2)n(COCc2ccccc2)c(=O)[nH]c1=O |  | MT-4 |  | 0.076 µM |
| [2H]C([2H])(NCC[C@@]12CC[C@]3(C)[C@H](CC[C@@H]4[C@@]5(C)CC[C@H](OC(=O)[C@H]6C[C@@H](C(=O)O)C6(C)C)C(C)(C)[C@@H]5CC[C@]43C)C1=C(C(C)C)C(=O)C2)c1ccccc1 | p24 / ELISA | MT-2 | 92HT599 | <1 µM |
| COc1cccc2c1nc(-c1ccccc1F)n2CC=C(Cl)Cl |  | MT-4 | IIIB | 0.077 µg/mL |
| C=CCOC(=O)N[C@@H](Cc1ccccc1)[C@H](O)CN(CC1CCCC1)S(=O)(=O)c1ccc2c(c1)CCN2C(C)=O | p24 | CEM | IIIB | <0.101 µM |
| CC(=O)N1CCC(C(=O)N(CCCN2CCC(Cc3ccc(C(N)=O)cc3)CC2)c2ccc(C)c(Cl)c2)CC1 | p24 | PBMC | CTV Clinical isolates | 0.0007 µM |
| O=C(O)C[C@H](CC1CC1)NC(=O)c1ccccc1SSc1ccccc1C(=O)N[C@H](CC(=O)O)CC1CC1 | cytopathic effect / XTT | CEM | IIIB | 5.2 µM |
| CC(C)C1=C2[C@H]3CC[C@@H]4[C@@]5(C)CC[C@H](OC(=O)[C@H]6C[C@@H](C(=O)O)C6(C)C)C(C)(C)[C@@H]5CC[C@@]4(C)[C@]3(C)CC[C@@]2(CC(=O)NC(F)(F)CNC(=O)c2ccc(Cl)cc2)CC1=O | p24 / ELISA | MT-2 | 92HT599 | <1 µM |
| CC(=O)Nc1ccc(S(=O)(=O)N(CC(C)C)C[C@@H](O)[C@H](Cc2ccccc2)NC(=O)OCc2ccccc2)cc1 | p24 | CEM | IIIB | <1.001 µM |
| COc1cccc2c1nc(-c1ccccc1F)n2C(=O)OC(C)C |  | MT-4 | IIIB | 0.0231 µg/mL |
| Cc1cn(-c2ccc(C(=O)NC(C)(C)CNC(=O)C[C@@]34CC[C@]5(C)[C@H](CC[C@@H]6[C@@]7(C)CC[C@H](OC(=O)[C@H]8C[C@@H](C(=O)O)C8(C)C)C(C)(C)[C@@H]7CC[C@]65C)C3=C(C(C)C)C(=O)C4)cc2)cn1 | p24 / ELISA | MT-2 | 92HT599 | <1 µM |
| O=C(N[C@H](CO)c1ccccc1)c1ccccc1SSc1ccccc1C(=O)N[C@H](CO)c1ccccc1 | cytopathic effect / XTT | CEM | IIIB | >21 µM |
| CCOCn1c(Cc2cc(C)cc(C)c2)c(CC)c(=O)[nH]c1=O |  | MT-4 |  | 0.0064 µM |
| CCC(C)C(NC(=O)c1ccccc1SSc1ccccc1C(=O)NC(C(=O)O)C(C)CC)C(=O)O | cytopathic effect / XTT | CEM | IIIB | 9 µM |
| COc1cccc2c1nc(-c1ccccc1F)n2Cc1ccccc1C |  | MT-4 | IIIB | 0.13 µg/mL |
| COC(=O)[C@@H](NC(=O)c1ccccc1SSc1ccccc1C(=O)N[C@H](C(=O)OC)[C@H](C)O)[C@H](C)O | cytopathic effect / XTT | CEM | IIIB | 4.4 µM |
| O=C(CSc1nnnn1-c1ccccc1Br)Nc1ccccc1[N+](=O)[O-] | p24 | MT-4 |  | <10 µM |
| CC(C)(C)C[C@H](NC(=O)c1ccccc1SSc1ccccc1C(=O)N[C@@H](CC(C)(C)C)C(=O)O)C(=O)O | cytopathic effect / XTT | CEM | IIIB | 5.7 µM |
| COc1cccc2c1nc(-c1ccccc1F)n2CCC=C(C)C |  | MT-4 | IIIB | 0.03 µg/mL |
| CCCCOC[C@H](NC(=O)c1ccccc1SSc1ccccc1C(=O)N[C@@H](COCCCC)C(=O)O)C(=O)O | cytopathic effect / XTT | CEM | IIIB | >100 µM |
| [2H]C(CCCCN)(CNC(=O)c1ccc(Cl)cc1)NC(=O)C[C@@]12CC[C@]3(C)[C@H](CC[C@@H]4[C@@]5(C)CC[C@H](OC(=O)[C@H]6C[C@@H](C(=O)O)C6(C)C)C(C)(C)[C@@H]5CC[C@]43C)C1=C(C(C)C)C(=O)C2 | p24 / ELISA | MT-2 | 92HT599 | <1 µM |
| CC(C)CN(C[C@@H](O)[C@H](Cc1ccccc1)NC(=O)OCC1CCOC1)S(=O)(=O)c1ccc(Cl)c(Cl)c1 | p24 | CEM | IIIB | <1.001 µM |
| CCc1c(Sc2ccccc2)n(COC2CCCCC2)c(=O)[nH]c1=O |  | MT-4 |  | 3.8 µM |
| COC(=O)c1ccc(NC(=O)CSc2nnnn2-c2c(C)cc(C)cc2C)c(C)c1 | p24 | MT-4 |  | <10 µM |
| COc1cccc2c1nc(-c1ccccc1F)n2Cc1ccc(C(F)(F)F)cc1 |  | MT-4 | IIIB | >5 µg/mL |
| O=C(NC1(C(=O)O)CCCCC1)c1ccccc1SSc1ccccc1C(=O)NC1(C(=O)O)CCCCC1 | cytopathic effect / XTT | CEM | IIIB | 6.9 µM |

Repeating the final 3 entries:

compound,read by,cell line,strain or isolate,result
COC(=O)c1ccc(NC(=O)CSc2nnnn2-c2c(C)cc(C)cc2C)c(C)c1,p24,MT-4,,<10 µM
COc1cccc2c1nc(-c1ccccc1F)n2Cc1ccc(C(F)(F)F)cc1,,MT-4,IIIB,>5 µg/mL
O=C(NC1(C(=O)O)CCCCC1)c1ccccc1SSc1ccccc1C(=O)NC1(C(=O)O)CCCCC1,cytopathic effect / XTT,CEM,IIIB,6.9 µM

Blank or dashed fields: not listed here. Neighbouring rows are from separate reports.